Pooled drug test results. Numbers come from NIAID ChemDB, via PubChem.

Common to all: growth or infection tests; agent: Mycobacterium tuberculosis

MIC50, MIC90 and the like: level of inhibition, or share of isolates inhibited. Two numbers with a dash give a range or band. ECn is the concentration giving n% inhibition of infection, replication or growth. MIC bound: limit read from a one-dose screen. Rows are shuffled and stem from different studies. An empty or dashed field is not shown. Inhibition is in % at the dose shown (toxicity tests: loss of growth or viability).

SMILES	strain	mutations	cells	read by	endpoint	dose	value
C(=C\c1ccccc1)/CNc1cccc(Cn2ccnc2)c1	103471	-	-	-	MIC	-	>64 µg/mL
O=C(N/N=C/c1ccc(F)cc1)c1cc(-c2ccc(F)cc2F)ccc1O	H37Rv	-	-	resazurin	MIC	-	>6.25 µg/mL
Cc1cc(C2=NNC(c3c(Cl)cccc3Cl)C2)ccc1O	H37Rv	-	-	-	inhibition	6.25 µg/mL	83%
CCOC(=O)c1ccc(NC(=O)/C=C\C(=O)O)cc1O	H37Rv	-	-	-	MIC	-	>20 µg/mL
NNC(=O)c1ccncc1	Isolate P	-	-	-	MIC	-	0.125 µg/mL
Cc1ccc(N2C(=O)C3C(C2=O)C2(Cl)C(Cl)=C(Cl)C3(Cl)C2(Cl)Cl)cc1Cl	H37Rv	-	-	BACTEC	MIC bound	-	>12.5 µg/mL
C(=C\c1ccccc1)/CNc1ccccc1Cn1ccnc1	6431	-	-	-	MIC	-	4 µg/mL
CC(=O)Nc1ccc(/C=N/NC(N)=S)cc1	14 strains	-	-	-	MIC90	-	0.25 µg/mL
CC[C@H]1OC(=O)[C@H](C)[C@@H](O[C@H]2C[C@@](C)(OC)[C@@H](O)[C@H](C)O2)[C@H](C)[C@@H](O[C@@H]2O[C@H](C)C[C@H](N(C)C)[C@H]2O)[C@](C)(O)C[C@@H](C)CN(C)[C@H](C)[C@@H](O)[C@]1(C)O	20 strains	-	-	-	MIC90	-	>128 µg/mL
CCN(CC)Cc1cc(N(c2cc(C)nc3cc(Cl)ccc23)S(=O)(=O)c2cc(C)cc(C)c2)ccc1O	H37Rv	-	-	agar	MIC	-	6.25 µg/mL
CCCCNCc1cccc(F)c1	H37Rv	-	-	-	MIC	-	30 µg/mL
Cc1cccc(OC(=O)c2ccc(NC(=O)CCC(=O)O)cc2O)c1	H37Rv	-	-	-	MIC	-	0.5 µg/mL
NNC(=O)c1ccncc1	20 strains	-	-	-	MIC50	-	0.025 µg/mL
CN1CCN(Cc2ccc(NC/C=C/c3ccccc3)cc2)CC1	103471	-	-	-	MIC	-	>64 µg/mL
CN(C1=CC(=O)C(=O)c2ccccc21)c1ccccc1	H37Rv	-	-	resazurin	inhibition	6.25 µg/mL	4%
CNCc1ccccc1	H37Rv	-	-	-	MIC	-	250 µg/mL
COc1ccc(-c2csc(-n3cccc3)n2)cc1OC	H37Rv	-	-	resazurin	MIC	-	50 µg/mL
CCN(CC)Cc1cc(N(c2cc(C)nc3cc(Cl)ccc23)S(=O)(=O)c2ccc(Cl)cc2)ccc1O	H37Rv	-	-	agar	MIC	-	6.25 µg/mL
CC(C)OC(=O)c1ccc(N)cc1O	H37Rv	-	-	-	MIC	-	20 µg/mL
Cc1cc(C(=O)/C=C/c2ccc(Cl)cc2)ccc1O	H37Rv	-	-	-	inhibition	6.25 µg/mL	90%
Cc1ccc(C)n1-c1nc(-c2ccc([N+](=O)[O-])cc2)cs1	H37Rv	-	-	resazurin	MIC	-	0.4 µg/mL
COc1cc2c(c(O)c1OC)-c1c(cc(OC)c(OC)c1OC)C[C@@H](C)[C@@H](C)C2	H37Rv	-	-	BACTEC	MIC bound	-	>12.5 µg/mL
COc1c(N2CCNC(C)C2)c(F)cc2c(=O)c(C(=O)O)cn(C3CC3)c12	NCTC7146	-	-	-	MIC	-	0.25 µg/mL
CCN(CC)Cc1cc(N(c2cc(C)nc3cc(Cl)ccc23)S(=O)(=O)c2cccc(Cl)c2Cl)ccc1O	H37Rv	-	-	agar	MIC	-	3.12 µg/mL
C[C@@H]1C[C@H](O)C(=O)[C@]2(C)[C@H]3[C@H](O)C(=O)[C@H](C)[C@@H]4CC(=O)O[C@H](C[C@@H]12)[C@]34C	H37Rv	-	-	-	EC50	-	>12.5 µg/mL
CCN(CC)CCCNc1ccc(C)c2sc3ccccc3c(=O)c12	H37Rv	-	VERO	BACTEC	MIC	-	3.13 µg/mL
COc1cc(C2CC(c3ccc(O)c(C)c3)=NN2)cc(OC)c1OC	H37Rv	-	-	-	MIC	-	>6.25 µg/mL
CCOC(=O)c1cc2c(cn1)[nH]c1ccccc12	H37Rv	-	-	BACTEC	MIC bound	-	>12.5 µg/mL
Cc1cc(C2=NNC(c3ccc(F)cc3)C2)ccc1O	H37Rv	-	-	-	inhibition	6.25 µg/mL	85%
COc1cccc2c1C(=O)c1c(O)c3c(c(O)c1C2=O)C[C@@](O)(/C(C)=N/NC(=O)c1cccc([N+](=O)[O-])c1)C[C@H]3O[C@H]1CC(N)[C@H](O)[C@H](C)O1	H37Rv	-	-	BACTEC	inhibition	12.5 µg/mL	99%
CCOC(=O)Nc1cc(NC(C)=O)c2nc(C3CCCCC3)[nH]c2c1	H37Rv	-	-	resazurin	MIC99	-	1.6 µM
CCOC(=O)C1C(=O)C(=O)N(Cc2ccccc2)C1C(=O)OCC	H37Rv	-	-	resazurin	MIC bound	-	>6.25 µg/mL
O=C(NN1C(=O)[C@H]2CCCC[C@H]2C1=O)c1ccc(-n2cccc2)cc1	H37Rv	-	-	resazurin	MIC	-	3.125 µg/mL
O=C(N/N=C/c1ccccc1F)c1cc(-c2ccc(F)cc2F)ccc1O	H37Rv	-	-	resazurin	inhibition	6.25 µg/mL	17%
O=C(Nc1cccc(Br)c1)c1cnccn1	H37Rv	-	-	BACTEC	MIC bound	-	>12.5 µg/mL
Nc1ccc(C(=O)O)c(O)c1	H37Ra	-	-	-	MIC	-	0.025 µg/mL
O=C(N/N=C/c1ccc(Cl)cc1)c1cc(-c2ccc(F)cc2F)ccc1O	H37Rv	-	-	resazurin	inhibition	6.25 µg/mL	15%
COC1=C[C@@H](C)[C@@H]2C[C@H]3OC(O)C[C@H]4C(C)=C(OC)C(=O)[C@H]([C@@]2(C)C1=O)[C@@]34C	H37Rv	-	-	-	inhibition	12.5 µg/mL	8%
O=C1OC(c2ccccc2)=N/C1=C\c1ccc(F)cc1	H37Rv	-	-	resazurin	MIC90	-	<6.25 µg/mL
Nc1ncnc2c1ncn2[C@@H]1C[C@H](COS(=O)(=O)NC(=O)c2ccccc2O)[C@@H](O)[C@H]1O	H37Rv	-	-	-	MIC	-	1.56 µM
C(/C=C/c1ccccc1)=Nc1ccc(Cn2ccnc2)cc1	B905	-	-	-	MIC	-	32 µg/mL
O=P(O)(CN1CCN(CP(=O)(O)c2ccccc2)CCN(CP(=O)(O)c2ccccc2)CC1)c1ccccc1	H37Rv	-	-	BACTEC	MIC bound	-	>12.5 µg/mL
Cc1cc(C(=O)/C=C/c2c(Cl)cccc2Cl)ccc1O	H37Rv	-	-	-	inhibition	6.25 µg/mL	90%
Oc1ccc(-c2csc(-n3cccc3)n2)cc1	H37Rv	-	-	resazurin	MIC	-	50 µg/mL
COC1=C[C@@H](C)[C@@H]2C[C@H]3OC(O)C[C@H]4[C@](C)(O)[C@H](OC)[C@@H](OC(C)=O)[C@H]([C@@]2(C)C1=O)[C@@]34C	H37Rv	-	-	-	inhibition	12.5 µg/mL	12%
Nc1ncnc2c1ncn2[C@H]1C=C[C@@H](COS(=O)(=O)NC(=O)c2ccccc2O)C1	H37Rv	-	-	-	MIC	-	>200 µM
CCCCNCc1cccc(O)c1	H37Rv	-	-	-	MIC	-	125 µg/mL
COc1cc(/C=N/NC(=O)c2cc(-c3ccc(F)cc3F)ccc2O)ccc1O	H37Rv	-	-	resazurin	MIC	-	>6.25 µg/mL
C(=C\c1ccccc1)/CNc1ccc(CN2CCOCC2)cc1	6431	-	-	-	MIC	-	32 µg/mL
COC(=O)c1cc(-c2ccc(F)cc2F)ccc1O	H37Rv	-	-	resazurin	MIC	-	>6.25 µg/mL
C[C@]12C=CC(=O)C=C1CC[C@@H]1[C@@H]2CC[C@]2(C)OC(=O)C(=O)C[C@@H]12	H37Rv	-	-	-	inhibition	6.25 µg/mL	12%
COc1cc2c(cc1OC)C1=NN(C(=O)Nc3ccc(F)c(Cl)c3)C(c3ccc(F)cc3)C1C2	INH resistant	-	-	agar	EC50	-	12.5 µM
CC[C@@H](CO)NCCN[C@@H](CC)CO	20 strains	-	-	-	MIC90	-	0.5 µg/mL
CCOC(=O)N/N=C1\CCCCCC\C1=N/NC(=O)OCC	H37Rv	-	-	BACTEC	inhibition	12.5 µg/mL	-9%
CCCCNCc1ccc(OCCC)cc1	H37Rv	-	-	-	MIC	-	250 µg/mL
O=c1[nH]c2ncccc2c(=O)n1OS(=O)(=O)c1ccccc1	H37Rv	-	-	resazurin	MIC bound	-	>6.25 µg/mL
CN1CCN(Cc2ccccc2NC/C=C/c2ccccc2)CC1	103471	-	-	-	MIC	-	>64 µg/mL
O=C(O)c1ccc(NC(C(=O)c2ccc(F)cc2)N2CCCCC2)cc1O	H37Rv	-	-	resazurin	MIC90	-	<6.25 µg/mL
CCN(CC)CCNc1c(O)cc(C)c2sc3ccccc3c(=O)c12	H37Rv	-	-	BACTEC	MIC bound	-	>12.5 µg/mL
O=C(O)c1ccc(NCN2CCN(CNc3ccc(C(=O)O)c(O)c3)CC2)cc1O	H37Rv	-	-	resazurin	MIC90	-	<6.25 µg/mL
CC(C)COC(=O)c1ccc(N)cc1O	H37Rv	-	-	-	MIC	-	2.5 µg/mL
C=CCCNC(=S)[S-].[Na+]	H37Rv	-	-	BACTEC	MIC bound	-	≤128 µg/mL
COC(=O)[C@]12OC[C@@]34[C@@H](CC5=C(C)C(=O)C(O)=C[C@]5(C)[C@H]3[C@@H](O)[C@@H]1O)OC(=O)[C@H](OC(=O)/C=C(\C)C(C)C)[C@@H]24	H37Rv	-	-	-	EC50	-	>12.5 µg/mL
Nc1ncnc2c1ncn2[C@H]1C[C@H](O)[C@@H](COS(=O)(=O)NC(=O)c2ccccc2O)O1	H37Rv	-	-	-	MIC	-	25 µM
O=C(O)CCC(=O)Nc1ccc(C(=O)Oc2ccccc2)c(O)c1	H37Rv	-	-	-	MIC	-	0.5 µg/mL
COc1ccc(/C=C/C(=O)c2ccc(O)c(C)c2)cc1	H37Rv	-	-	-	MIC	-	>6.25 µg/mL
O=C(O)c1ccc(N=Cc2ccc(F)cc2)cc1O	H37Rv	-	-	resazurin	MIC90	-	<6.25 µg/mL
CC(C)=CC(=O)O[C@H]1C(=O)O[C@@H]2C[C@H]3[C@H](C)C(=O)C(O[C@@H]4O[C@H](CO)[C@@H](O)[C@H](O)[C@H]4O)=C[C@]3(C)[C@H]3[C@@H](O)[C@H](O)C4(C(=O)O)OC[C@]32[C@@H]14	H37Rv	-	-	-	inhibition	12.5 µg/mL	7%
O=C(N/N=C/CCCCCCCc1cccc(O)c1C(=O)O)c1ccncc1	H37Rv	-	-	-	MIC	-	0.5–10 µg/mL
O=C(O)CC1OCC=C2CN3CCC45C6=CC(=O)C(=O)C([N+](=O)[O-])=C6NC4C1C2CC35	H37Rv	-	-	BACTEC	inhibition	12.5 µg/mL	19%
NNC(=O)c1ccncc1	-	INH resistant katG S315T	-	fluorescence	MIC	-	>10 µM
Nc1ncnc2c1c(-c1cccc3c1oc1ccccc13)cn2[C@@H]1O[C@H](CO)[C@@H](O)[C@H]1O	My 331/88	-	-	broth dilution	MIC	-	16 µM
COc1cc(Cc2cnc(N)nc2N)cc(OC)c1OC	H37Ra	-	-	-	MIC	-	256 µg/mL
O=C(O)c1ccc(NCN2CCCCC2)cc1O	H37Rv	-	-	resazurin	MIC90	-	<6.25 µg/mL
CCCCNCc1ccccc1O	H37Rv	-	-	-	MIC	-	125 µg/mL
COC1=C[C@@H](C)[C@@H]2C[C@H]3OC(=O)C[C@@H]4[C@@]3(C)[C@H]([C@H](O)C[C@@]4(C)C(=O)C3(C)COC(=O)C3)[C@@]2(C)C1=O	H37Rv	-	-	-	EC50	-	>12.5 µg/mL
Cc1ccc(C)n1-c1ccc(C(=O)NN2C(=O)c3c(F)c(F)c(F)c(F)c3C2=O)cc1	H37Rv	-	-	resazurin	MIC	-	0.2 µg/mL
N[C@@H]1CN(c2c(F)cc3c(=O)c(C(=O)O)cn([C@@H]4C[C@@H]4F)c3c2Cl)CC12CC2	Clinical strain	Gyrase Asp94Ala/Ala90Val	-	resazurin	MIC	-	0.5–1 µg/mL
O=C(n1c(=O)n(-c2ccc(Cl)cc2)c(=O)n1C(=O)C(Cl)(Cl)Cl)C(Cl)(Cl)Cl	H37Rv	-	-	BACTEC	inhibition	12.5 µg/mL	0%
CCCCNCc1ccc(C)cc1	H37Rv	-	-	-	MIC	-	250 µg/mL
O=[N+]([O-])OC1CCCC(O[N+](=O)[O-])c2c1n([O-])c1ccccc1[n+]2=O	H37Rv	-	-	resazurin	inhibition	6.25 µg/mL	100%
Cc1ccc(C)n1-c1nc(-c2ccc(Br)cc2)cs1	H37Rv	-	-	resazurin	MIC	-	0.4 µg/mL
CCN(CC)CCNc1n[n+]([O-])c2cc([N+](=O)[O-])ccc2[n+]1[O-]	H37Rv	-	-	BACTEC	MIC bound	-	>6.25 µg/mL
Nc1ncnc2c1c(-c1ccc3ccccc3c1)cn2[C@@H]1O[C@H](CO)[C@@H](O)[C@H]1O	Praha 131	-	-	-	EC50	-	8 µM
CO[C@@]12[C@H](COC(=O)NCCO)C3=C(C(=O)C(C)=C(N)C3=O)N1C[C@H]1[C@@H]2N1C	ETA-R	-	-	-	MIC	-	3.1 µg/mL
Cc1cc(C2=NNC(c3ccc(Cl)cc3)C2)ccc1O	H37Rv	-	-	-	inhibition	6.25 µg/mL	90%
Nc1c(C(=O)NCc2ccccc2)c2nc3c(C(=O)NCc4ccccc4)ccc(Br)c3oc-2c(Br)c1=O	H37Rv	-	-	BACTEC	MIC bound	-	>12.5 µg/mL
CCC(C)CNCc1ccccc1	H37Rv	-	-	-	MIC	-	60 µg/mL